Experimental data published in paper PMC12714728 (npj Viruses, 2025).

What was measured:
[1] = target: H1/Bri HA, A/Brisbane/59/07 (H1N1) hemagglutinin, C-terminally biotinylated, for the CCI assay (influenza A virus A/Brisbane/59/07 …, C-terminal biotin); assay: cell-based or functional assay
[2] = target: T1, hemagglutinin (HA) ectodomain of A/Vietnam/1203/2004 (H5N1) (influenza A virus A/Vietnam/1203/2004 …, biotin on the BirA site); details: both partners purified
[3] = target: T2, hemagglutinin (HA) ectodomain of A/New Caledonia/20/1999 (H1N1) (influenza A virus A/New …, biotin on the BirA site); assay: AlphaScreen or HTRF; details: both partners purified
[4] = target: T1, hemagglutinin (HA) ectodomain of …; details: both partners purified; remark: listed apart in the source
[5] = target: T2, hemagglutinin (HA) ectodomain of A/New …; assay: cell-based or functional assay

Row | Binder | conformational change inhibition assay (CCI) IC50 [1] [nM] | IC50 [2] [nM] | IC50 [3] [nM] | koff [4] [s⁻¹] | virus neutralization assay (VNA) EC50, H1/NCa virus [5] [nM]
1 | CLYRDPLGVAGEMGC (disulfide between the two Cys (sidechain-sidechain cyclization)) [cyclic peptide CP10] | 460 | 7610 | 2930 | 0.746 | 88300
2 | CLYEDPLGVAGGMGC (disulfide between the two Cys (sidechain-sidechain cyclization)) [cyclic peptide CP9] | 230 | 5590 | 700 |  | 820
